molecular target: 373-amino-acid fragment of PpsE (two-hybrid prey from the genomic library); test: yeast two-hybrid, liquid β-galactosidase assay; details: parent: est. 370; read off a plot

Going from “MmpL7 domain 2 fused to the LexA DNA-binding protein (two-hybrid bait) W571R” to “MmpL7 domain 2 fused to the LexA DNA-binding protein (two-hybrid bait) Y594H”, the response falls from 65 Miller Units to 49 Miller Units.

Compared with “MmpL7 domain 2 fused to the LexA DNA-binding protein (two-hybrid bait) I611S”, “MmpL7 domain 2 fused to the LexA DNA-binding protein (two-hybrid bait) Y594C” is lower in response: 31 Miller Units for the first, 30 Miller Units for the second.
